Anti-infective test results gathered from many reports (values: NIAID ChemDB through PubChem).

All rows: tests on isolated targets; organism: HIV-1; protein: Integrase; read-out: IC50

Lines come from different laboratories, so protocols vary. Two numbers with a dash give a range or band. ICn is the concentration giving n% inhibition.

compound,method,value
O=C1c2c(O)c(=O)n(CC3COCCN3Cc3ccccc3)c(=O)n2CCN1Cc1ccc(F)cc1,strand transfer,<10 µM
CN1CCCn2c(nc(C(=O)NCc3ccc(F)cc3)c(O)c2=O)C1(C)C,ELISA,<10 µM
CCSCCn1c(=O)c(O)c2n(c1=O)CCN(Cc1ccc(F)cc1)C2=O,strand transfer,<10 µM
O=C1/C(=C/c2ccc(Cl)c(Cl)c2)CSC/C1=C\c1ccc(Cl)c(Cl)c1,strand transfer,>100 µM
CC(C)n1c(=O)c(O)c2n(c1=O)C(CCN1CCc3ccccc3C1)CN(Cc1ccc(F)cc1)C2=O,strand transfer,<10 µM
CN(C)CC1c2nc(C(=O)NCc3ccc(F)cc3)c(O)c(=O)n2CCN1Cc1cocn1,ELISA,<10 µM
O=C(/C=C(\O)C(=O)O)NCc1ccc(C(F)(F)F)cc1,strand transfer,<70 µM
CNC(=O)c1cc(F)ccc1CN1CCn2cc(-c3nccs3)c(=O)c(O)c2C1=O,ELISA,0.1–1 µM
Cc1coc(CN2CCn3c(nc(C(=O)NCc4ccc(F)cc4)c(O)c3=O)C2(C)C)n1,ELISA,<10 µM
CC(C)(C)NS(=O)(=O)c1ccccc1-c1cccc(C(=O)Nc2ccc(CCC(=O)O)cc2)c1,strand transfer / fluorescence,0.995 µM
CNC(=O)c1cccc(C(c2ccc(F)cc2)N(C)C(=O)/C=C(\O)C(=O)O)c1,strand transfer,<70 µM
CC1(C)c2nc(C(=O)NCc3ccc(F)cc3)c(O)c(=O)n2CCN1Cc1cnco1,ELISA,<10 µM
CC(O)c1cc(=O)c(O)c2n1CCN(Cc1ccc(Cl)c(Cl)c1)C2=O,ELISA,0.01–0.1 µM
CCN1C/C(=C\c2cc(O)c(O)c(O)c2)C(=O)/C(=C/c2cc(O)c(O)c(O)c2)C1,disintegration,0.9 µM
CC(C)NC(=O)N(C)CCC1CN(Cc2ccc(F)cc2)C(=O)c2c(O)c(=O)n(C(C)C)c(=O)n21,strand transfer,<10 µM
CN(C(=O)/C=C(\O)C(=O)O)C(c1ccccc1)c1ccccc1,strand transfer,>70 µM
CC(C)CNC1CN(C)CCn2c1nc(C(=O)NCc1ccc(F)cc1)c(O)c2=O,ELISA,<10 µM
CN(Cc1ccccc1Cc1ccc(F)cc1)C(=O)/C=C(\O)C(=O)O,strand transfer,<70 µM
CN(C)C(=O)C(=O)N(C)C1COCCn2c1nc(C(=O)NCc1ccc(F)cc1)c(O)c2=O,ELISA,<10 µM
CN(C)C(=O)Nc1cn2ccn(Cc3cccc(Cl)c3)c(=O)c2c(O)c1=O,ELISA,<0.01 µM
CC1c2nc(C(=O)NCc3ccc(F)cc3)c(O)c(=O)n2CCN1C(=O)C(=O)N(C)C,ELISA,<10 µM
O=C(O)/C(O)=C/C(=O)N(Cc1ccc(F)cc1)Cc1ccc2ccccc2c1,strand transfer,<70 µM
O=C(/C=C/c1ccc(Cl)c(Cl)c1)/C=C/c1ccc(Cl)c(Cl)c1,strand transfer,>100 µM
CN1CCN(C(=O)C(=O)N(C)C2COCCn3c2nc(C(=O)NCc2ccc(F)cc2)c(O)c3=O)CC1,ELISA,<10 µM
CC(C)(C)c1ccc(CNC(=O)/C=C(\O)C(=O)O)cc1,strand transfer,>70 µM
CCN(CC)c1cn2ccn(Cc3cccc(Cl)c3)c(=O)c2c(O)c1=O,ELISA,0.01–0.1 µM
O=C1C(=Cc2cc(O)c(O)c(O)c2)C(=O)c2ccccc21,strand transfer,0.5 µM
COc1cc(Cl)ccc1Cn1ccn2ccc(=O)c(O)c2c1=O,ELISA,0.01–0.1 µM
COCCN(Cc1ccc(F)cc1)C(=O)/C=C(\O)C(=O)O,strand transfer,<70 µM

3 of the rows above, restated:

compound	method	value
CN(C(=O)/C=C(\O)C(=O)O)C(c1ccccc1)c1ccccc1	strand transfer	>70 µM
CN(C)CC1c2nc(C(=O)NCc3ccc(F)cc3)c(O)c(=O)n2CCN1Cc1cocn1	ELISA	<10 µM
CC1c2nc(C(=O)NCc3ccc(F)cc3)c(O)c(=O)n2CCN1C(=O)C(=O)N(C)C	ELISA	<10 µM